Anti-infective test results gathered from many reports (values: NIAID ChemDB through PubChem).

Common to all: whole-cell or culture tests; species: Mycobacterium tuberculosis

Two numbers with a dash give a range or band. MIC bound comes from a single tested concentration. Inhibition is in % at the dose shown (toxicity tests: loss of growth or viability). Rows are shuffled and stem from different studies. MIC50, MIC90 and the like: level of inhibition, or share of isolates inhibited. ECn is the concentration giving n% inhibition of infection, replication or growth. Blank or dashed fields: not listed here.

SMILES	strain or isolate	changes	read by	conditions	read-out	dose	value
Nc1nc2c(c(=O)[nH]1)CN(c1ccc(S(N)(=O)=O)cc1)CN2	H37Rv		BACTEC		inhibition	12.5 µg/mL	0%
c1cc2c(s1)CCOC21CCN(C2CCCCC2)CC1	H37Rv				EC50		>100 µM
CC1=CCC/C(C)=C/[C@H]2OC(=O)[C@@H](C)[C@@H]2CC1					MIC		128 µg/mL
C=CC(C)(O)/C=C/C=C(\C)C(CC1OC1(C)C)OC(=O)/C(C)=C/C	H37Rv		BACTEC		MIC		≥12.5 µg/mL
O=C(/C=C/c1ccccc1)Nc1ccccc1Cn1ccnc1	103471				MIC		>16 µg/mL
Cc1nc(Nc2ccc(Cl)cc2)sc1C(=O)NNc1ccc([N+](=O)[O-])cc1[N+](=O)[O-]	H37Rv		BACTEC		inhibition	6.25 µg/mL	4%
C/C1=C\[C@H]2OC(=O)[C@@H](C)[C@@H]2CCC2(C)O[C@@H]2CC1					MIC		128 µg/mL
O=C(Nc1cccc(C(F)(F)F)c1)c1ccc(Cl)cc1OS(=O)(=O)c1ccccc1	H37Rv			14 d	MIC		125 µM
COc1cccc2c1C(=O)OC2C	H2				MIC		1000 µg/mL
CCOC(=O)c1ccc2nc(-c3cncc(-c4ccc(F)cc4)c3)[nH]c2c1	H37Rv		resazurin / fluorescence		MIC		>100 µM
O=C([O-])C(F)(F)F.[NH3+]CCNC1=CC(=O)c2nc3ccccc3c3ccnc1c23	H37Rv				MIC		5.5 µM
COc1c(C)c2c3c4c1C(=O)C(=CC4=O)NC(=O)/C(C)=C\C=C\[C@H](C)[C@@H]1OC(C)(C)O[C@@H]([C@@H](C)[C@H](OC(C)=O)[C@H](C)[C@@H](OC)/C=C/O[C@@](C)(O2)C3=O)[C@@H]1C	H37Rv		BACTEC		MIC bound		≤12.5 µg/mL
O=C(OCCNC1=CC(=O)c2nc3ccccc3c3ccnc1c23)c1cnccn1	H37Rv				MIC		2 µM
CCOC(=O)c1ccc2nc(-c3ccc(O)cc3O)[nH]c2c1	H37Rv		resazurin / fluorescence		EC90		>100 µM
c1cc2c(s1)CCOC21CCN(Cc2ccc3c(c2)OCO3)CC1	H37Rv				EC50		10 µM
Cc1c2oc3c(C)ccc(C(=O)OCCN4CCN(c5ccccc5)CC4)c3nc-2c(C(=O)OCCN2CCN(c3ccccc3)CC2)c(N)c1=O	H37Rv		BACTEC		inhibition	12.5 µg/mL	67%
Cc1ccc(C(=O)CCC(=O)NC[C@H]2CN(c3ccc(-n4cncn4)c(F)c3)C(=O)O2)c(C)c1	10 clinical isolates resistant				MIC		1–2 µg/mL
O=C1CCCN2C(CC1)C[C@@]13CN4CCCC/C=C/CC[C@@](O)(C=C(c5nccc6c5[nH]c5c(O)cccc56)[C@H]1CC4)[C@@H]23	H37Rv				MIC		<12.5 µg/mL
O=C(Nc1ccc(Cl)cc1)c1ccc(Cl)cc1OS(=O)(=O)c1ccccc1	H37Rv			21 d	MIC		8 µM
CC1OC(=O)c2c(O)cccc21	H37Rv				MIC		1000 µg/mL
C[C@@H]1[C@H](O)[C@@H](C)/C=C/C=C/C=C/C=C/C=C/C=C/C=C/[C@H](O[C@@H]2O[C@H](C)[C@@H](O)[C@H](N)[C@@H]2O)C[C@@H]2O[C@](O)(C[C@@H](O)C[C@@H](O)[C@H](O)CC[C@@H](O)C[C@@H](O)CC(=O)O[C@H]1C)C[C@H](O)[C@H]2C(=O)O	H37Ra		resazurin / visual reading		MIC		50 µg/mL
CCCCCCCCCCCC(=O)NNC(=O)c1ccncc1	BCG				MIC		0.05 µg/mL
O=C(Nc1cccc(C(F)(F)F)c1)c1cc(Cl)ccc1OS(=O)(=O)c1ccccc1	H37Rv			14 d	MIC		2 µM
O=C(NCCNC1=CC(=O)c2nc3ccccc3c3ccnc1c23)c1cnccn1	H37Rv				MIC		2 µM
C=C1CC[C@@H](O)[C@]2(C)CC[C@@H]3[C@H](OC(=O)[C@H]3C)[C@@H]12					MIC		>128 µg/mL
CCOC(=O)c1ccc2c(c1)nc(-c1ccccc1)n2CCN1CCCOC1	H37Rv		resazurin / fluorescence		MIC		>100 µM
C[C@H]1[C@H](O)[C@@H](C)/C=C/C=C/C=C/C=C/C=C/C=C/C=C/[C@H](O[C@@H]2O[C@H](C)[C@@H](O)[C@H](N)[C@@H]2O)C[C@@H]2O[C@](O)(C[C@@H](O)C[C@@H](O)CC[C@H](O)[C@@H](O)C[C@@H](O)CC(=O)O[C@H]1C)C[C@H](O)[C@H]2C(=O)O	H37Rv		BACTEC		MIC		≥12.5 µg/mL
Clc1ccc(CN2CCC3(CC2)OCCc2sccc23)cc1	H37Rv				EC50		1.25 µM
O=C(Nc1cccc(Cl)c1)c1cc(Cl)ccc1OS(=O)(=O)c1ccccc1	H37Rv			14 d	MIC		4 µM
CC1=C(O)C(=O)[C@H]2O[C@H]2C1=O	H37Rv		BACTEC		MIC bound		>12.5 µg/mL
OC1CCCN2CCC1O[C@@]13CC[C@@H](OC[C@]45CN6CCCC/C=C\CC[C@](O)(C=C(c7nccc8c7[nH]c7ccccc78)[C@@H]4CC6)C25)[C@@H](O)CCN1C1[C@]2(CN4CCCC/C=C/CC[C@]1(O)C=C(c1nccc5c1[nH]c1ccccc15)[C@@H]2CC4)C3	H37Rv				MIC		<12.5 µg/mL
CC1CCCCN1.CC1CCCCN1C(=S)S	EMB-R				MIC		1.6 µg/mL
NC[C@H]1O[C@H](O[C@H]2[C@H](O)[C@@H](O[C@H]3O[C@H](CO)[C@@H](O)[C@H](N)[C@H]3O)[C@H](N)C[C@@H]2N)[C@H](O)[C@@H](O)[C@@H]1O	H37Rv				MIC		2 µg/mL
C=C1C(=O)O[C@@H]2/C=C(\C)CC/C=C(\C)CC[C@@H]12					MIC		32 µg/mL
O=C(Nc1cccc(CN2CCOCC2)c1)c1ccc(-c2ccccc2)cc1	103471				MIC		8 µg/mL
CCOC(=O)c1ccc2c(c1)nc(-c1ccc(O)cc1O)n2CCN1CCCC1=O	H37Rv		resazurin / fluorescence		EC90		>100 µM
C/C=C/CCNNC(=O)c1ccncc1	BCG				MIC		0.02 µg/mL
c1cc2c(s1)CCOC21CCNCC1	H37Rv				EC50		>100 µM
CC(=O)Nc1ccc2nc(/C=C/c3ccc(N(C)C)cc3)c(=O)oc2c1	H37Rv		BACTEC		MIC bound		>12.5 µg/mL
COC(=O)c1cc2c(s1)-c1nccc3c1c(nc1ccccc13)C2=O	H37Rv				MIC		0.58 µM
C[Se]C1C(=O)N(Cc2ccccc2)C([Se]C)C(=O)N1Cc1ccccc1			turbidity		EC50		16.2 µM
C[n+]1cc2c(cn3c4ccccc4ccc23)c2ccccc21.[I-]	H37Rv		resazurin / visual reading		MIC		6.2 µg/mL
CCCC/C=C/CNNC(=O)c1cccs1	BCG				MIC		3 µg/mL
C/C=C(/C)C(=O)O[C@@H]1C=C(C)CC[C@H]2[C@H](C)C(=O)O[C@@H]2/C=C(\C)C1					MIC		>128 µg/mL
O=c1ccc2nc3ccccc3ccc-2c1	H37Rv		resazurin		MIC		6.25 µg/mL
CC1OC(=O)c2cccc(O)c21	H2				MIC		300 µg/mL
O=C(/C=C/c1ccccc1)c1c[nH]c2ccccc12	H37Rv		BACTEC		inhibition	6.25 µg/mL	49%
CN[C@@H]1[C@@H](O)[C@@H](O[C@@H]2[C@@H](O)[C@H](O[C@H]3O[C@H](CN)CC[C@H]3N)[C@@H](N)C[C@H]2N)OC[C@]1(C)O	H37Rv				MIC		2 µg/mL
C/C(=N\Nc1ccc([N+](=O)[O-])cn1)C(=O)O	H37Rv		BACTEC		inhibition	12.5 µg/mL	12%
C=C(CO)[C@@H]1CC[C@@]2(C)[C@H](O)CC=C(C)[C@@H]2[C@H]1O					MIC		>128 µg/mL
C[n+]1cc2c(cn3c4ccccc4ccc23)c2ccccc21	H37Rv	p-aminosalicylic acid-resistant	resazurin / visual reading		MIC		1.5 µg/mL
O=C(Nc1cccc(Br)c1)c1ccc(Cl)cc1OS(=O)(=O)c1ccccc1	H37Rv			14 d	MIC		16 µM
C=C1CC[C@@H](O)[C@]2(C)CC[C@@H](C(C)CO)[C@H](O)[C@@H]12					MIC		>128 µg/mL
CCOC(=O)NC(=O)c1ccsc1NC(=O)c1nc2ccccc2s1			turbidity	biofilm	MIC99		0.01 µg/mL
CO[C@H]1/C=C/O[C@@]2(C)Oc3c(C)c(O)c4c(O)c(c(/C=N/N5CCN(C)CC5)c(O)c4c3C2=O)NC(=O)/C(C)=C\C=C\[C@H](C)[C@H](O)[C@@H](C)[C@@H](O)[C@@H](C)[C@H](OC(C)=O)[C@@H]1C	26 isolates drug-susceptible				MIC		1 µg/mL
CC(C)Cc1ccc(C(=O)CCC(=O)NC[C@H]2CN(c3ccc(N4CCOCC4)c(F)c3)C(=O)O2)cc1	ATCC 27294				MIC		5 µg/mL
OC(c1cc(-c2ccc(Cl)c(Cl)c2)nc2ccccc12)C1CCCCN1	H37Rv		resazurin		MIC		3.13 µg/mL
CCOC(=O)c1ccc2c(c1)nc(-c1ccc(N3CCOCC3)cc1)n2CCN1CCCOC1	H37Rv		resazurin / fluorescence		EC50		>100 µM
Cc1ccc(C(=O)CCC(=O)NC[C@H]2CN(c3ccc(-[n+]4[nH]nc5ccccc54)c(F)c3)C(=O)O2)c(C)c1	10 clinical isolates sensitive				MIC		>16 µg/mL
CC1(C)CCCN1CC(O)CN1c2ccccc2Sc2ccc(Cl)cc21.Cl	H37Rv		BACTEC		inhibition	12.5 µg/mL	94%
O=C(Nc1ccc(Br)cc1)c1ccc(Br)cc1OS(=O)(=O)c1ccccc1	H37Rv			21 d	MIC		8 µM
COc1ccc2c(c1)[n+]([O-])c(C(N)=O)c(N)[n+]2[O-]	EMB-R				MIC		3.1 µg/mL
CC1OC(=O)c2ccc(N)cc21	H2				MIC		300 µg/mL
CO[C@H]1/C=C/O[C@@]2(C)Oc3c(C)c(O)c4c(O)c(c5c(c4c3C2=O)NC2(CCN(CC(C)C)CC2)N=5)=NC(=O)/C(C)=C\C=C\[C@H](C)[C@H](O)[C@@H](C)[C@@H](O)[C@@H](C)[C@H](OC(C)=O)[C@@H]1C	4 isolates (SER531TRP)				MIC		>5 µg/mL
O=C(/C=C/c1ccccc1)Nc1ccccc1CN1CCOCC1	103471				MIC		>16 µg/mL
O=C1C=C(NCCNC(=S)Nc2ccccc2)c2nccc3c2c1nc1ccccc13	H37Rv				MIC		3.7 µM
CN(C)c1ccc(/C=C2\N=C(c3ccc(N)cc3)OC2=O)cc1	H37Rv		BACTEC		MIC bound		>12.5 µg/mL
CC1OC(=O)c2c(N)cccc21	H37Rv				MIC		1000 µg/mL
Cc1ncc(C(=O)NN)c(=O)[nH]1	BCG				MIC		400 µg/mL
CCOC(=O)c1ccc2c(c1)nc(-c1ccc(N(C)C)cc1)n2CCN1CCCC1=O	H37Rv		resazurin / fluorescence		EC90		>100 µM
CC1OC(=O)c2cccc(N)c21	H37Rv				MIC		1000 µg/mL
COc1ccc2c(c1)CCC1=C2CCC2(C)C(=O)NC(=O)N12	H37Rv		BACTEC		inhibition	12.5 µg/mL	-35%
O=C(Nc1ccc(CN2CCOCC2)cc1)c1ccc(-c2ccccc2)cc1	103471				MIC		>16 µg/mL
C/C=C/C1=CC(=O)C(O)C1O	H37Rv		BACTEC		MIC		≥12.5 µg/mL
Cc1ccc(SC2=CC(=O)c3nc4ccccc4c4ccnc2c34)cc1	H37Rv				MIC		2.2 µM
COc1cc2c(cc1OC)C(=O)c1nccc3ccc(OC)c(c13)O2	H37Rv		BACTEC		MIC bound		>12.5 µg/mL
NC(=O)c1ccncc1	BCG				MIC		1000 µg/mL
CC1=NN(C(=O)CC(=O)N(C(=O)c2ccccc2Cl)c2ccc(C)cc2)C(=O)C1N=Nc1ccc([N+](=O)[O-])cc1	H37Rv		BACTEC		MIC		≥12.5 µg/mL
C[C@@H]1C(=O)O[C@H]2[C@H]1CCC1(C)O[C@@H]1CC[C@@]1(C)O[C@@H]21					MIC		128 µg/mL

A second listing of 10 rows from above:

SMILES	strain or isolate	changes	read by	conditions	read-out	dose	value
C=C1CC[C@@H](O)[C@]2(C)CC[C@@H](C(C)CO)[C@H](O)[C@@H]12					MIC		>128 µg/mL
CCOC(=O)c1ccc2c(c1)nc(-c1ccccc1)n2CCN1CCCOC1	H37Rv		resazurin / fluorescence		MIC		>100 µM
C=C1C(=O)O[C@@H]2/C=C(\C)CC/C=C(\C)CC[C@@H]12					MIC		32 µg/mL
CCOC(=O)NC(=O)c1ccsc1NC(=O)c1nc2ccccc2s1			turbidity	biofilm	MIC99		0.01 µg/mL
O=C(Nc1cccc(CN2CCOCC2)c1)c1ccc(-c2ccccc2)cc1	103471				MIC		8 µg/mL
CC1OC(=O)c2cccc(N)c21	H37Rv				MIC		1000 µg/mL
c1cc2c(s1)CCOC21CCNCC1	H37Rv				EC50		>100 µM
O=c1ccc2nc3ccccc3ccc-2c1	H37Rv		resazurin		MIC		6.25 µg/mL
CCOC(=O)c1ccc2nc(-c3ccc(O)cc3O)[nH]c2c1	H37Rv		resazurin / fluorescence		EC90		>100 µM
CCOC(=O)c1ccc2c(c1)nc(-c1ccc(N(C)C)cc1)n2CCN1CCCC1=O	H37Rv		resazurin / fluorescence		EC90		>100 µM